These compounds were tested on SARS-CoV-2 S-G614 pseudovirus. Conditions: CC50 293T-ACE2 vs S-G614 EC50.

Compound	SI (cytotoxicity)
CC1CCN(CC(O)COc2cccc(OCC(O)CN3CCC(C)CC3)c2)CC1 (stereo not shown) [SC171, 3,3'-(1,3-phenylenebis(oxy))bis(1-(4-methylpiperidin-1-yl)propan-2-ol)]	>13.06
COc1ccc(C[C@@H]2c3cc(Oc4cc(C[C@@H]5c6cc(OC)c(OC)cc6CCN5C)ccc4O)c(OC)cc3CCN2C)cc1 [SC185, Neferine]	>52.87
COc1ccc2cc1Oc1ccc(cc1)C[C@H]1c3cc(c(OC)cc3CCN1C)Oc1c(OC)c(OC)c(OC)c3c1[C@H](C2)N(C)CC3 [SC161, Hernandezine]	>448.83
COc1ccc2cc1Oc1ccc(cc1)C[C@H]1c3c(cc4c(c3Oc3cc5c(cc3OC)CCN(C)[C@@H]5C2)OCO4)CCN1C [SC9, Cepharanthine]	>158.58

— PMC7985570 (Signal Transduction and Targeted Therapy, 2021)
